Results of unrelated studies side by side (data: NIAID ChemDB).

Common to all: tests in culture; organism: Herpes simplex virus 1; read-out: EC50

Two numbers with a dash give a range or band. Conditions beyond the fields shown may differ between rows. ECn is the concentration giving n% inhibition of infection, replication or growth. An empty or dashed field is not shown.

SMILES	strain or isolate	cells	result
CC(C)c1cn([C@@H]2O[C@H](COP(=O)(O)O)[C@@H](O)[C@H]2O)c(=O)nc1N	McIntyre	-	>400 µg/mL
O=C(NCc1ccc(Cl)cc1)c1c[nH]c2c(F)cccc2c1=O	ARAA9 (N961K (V))	-	18 µM
CC[C@H](N)C(=O)OCCOCn1cnc2c(=O)[nH]c(N)nc21	SC16	VERO	<10 µM
O=c1[nH]c(=O)n(CC=C(CO)CO)cc1I	-	-	21.1 µg/mL
[N-]=[N+]=N[C@H]1C[C@@H](CO)S[C@H]1n1ccc(N)nc1=O	-	-	>100 µg/mL
O=C(c1ccncc1)n1c(-c2ccc([N+](=O)[O-])cc2)nc2ccccc21	KOS	-	>100 µg/mL
O=C(NCc1ccc(Cl)cc1)c1c[nH]c2c(F)cc(CCCO)cc2c1=O	PFA2 (T566A A605V)	-	0.6 µM
Nc1ccn(C[C@H]2COP(=O)(O)CO2)c(=O)n1	-	MRC-5	2.3 µM
O=c1[nH]c(=O)n([C@@H]2C[C@H](CO)C[C@H]2CO)cc1I	KOS	E6SM	>100 µg/mL
CCCCCCCC/C=C/CCCCCCCCO[C@H]1O[C@H](COP(=O)(O)C(=O)O)[C@@H](O)[C@H](O)[C@H]1O	R39	HFF	35 µM
Cc1cn([C@H]2CC3(CO2)COC(C)(C)O3)c(=O)[nH]c1=O	-	CCL18	>100 µM
CCNc1cn([C@H]2C[C@H](O)[C@@H](CO)O2)c(=O)[nH]c1=O	-	GMK	50 µg/mL
CC(=O)OCCOCN1C=C(C#N)C(N)=NS1(=O)=O	B206 (TK-)	E6SM	>400 µg/mL
Cc1cn(CC=C(CO)CO)c(=O)[nH]c1=O	-	-	>100 µg/mL
N#CC1=CN(COCCO)S(=O)(=O)N=C1N	KOS	E6SM	>400 µg/mL
OC[C@H]1CC(n2cnc3c(NC4CC4)ncnc32)C[C@@H]1CO	KOS (TK-)	E6SM	>100 µg/mL
O=c1[nH]c(=O)n(C2CC(O)C(CO)O2)cc1-c1ccco1	KOS	-	0.45 µM
Cc1cccn2c(C3OCCO3)cnc12	KOS	E6SM	>1000 µM
O=c1[nH]c(=O)n(C2CC(O)C(CO)O2)cc1-c1ccno1	KOS	-	20 µM
CC(C)[C@@H](N)C(=O)OCCOCn1cnc2c(=O)[nH]c(N)nc21	SC16	VERO	2.3 µM
CC(=O)OCCOCN1C(C)=CC(N)=[N+](c2ccccc2)S1(=O)=O	VMW1837 (TK-)	E6SM	>400 µg/mL
Nc1nc2c(ncn2/C=C2/[C@H](CO)C2(F)F)c(=O)[nH]1	-	BSC-1	>100 µM
O=C(c1ccccc1Br)n1c(-c2ccccc2[N+](=O)[O-])nc2ccccc21	KOS	-	>100 µg/mL
CC(C)C[C@H](N)C(=O)OCCOCn1cnc2c(=O)[nH]c(N)nc21	SC16	VERO	1.25 µM
CCOC(=O)C1=CN(COCCOC(C)=O)S(=O)(=O)N=C1N	McIntyre	E6SM	>400 µg/mL
CCCCc1cn([C@@H]2O[C@H](COP(=O)(O)O)[C@@H](O)[C@H]2O)c(=O)nc1N	F	-	>400 µg/mL
CN(C)c1cn([C@H]2C[C@H](O)[C@@H](CO)O2)c(=O)[nH]c1=O	-	GMK	150–300 µg/mL
O=C(c1ccc([N+](=O)[O-])cc1)n1c(-c2ccccc2Cl)nc2ccccc21	KOS	-	>100 µg/mL
[N-]=[N+]=N[C@H]1C[C@@H](CO)S[C@@H]1n1cnc2c(N)ncnc21	-	-	>100 µg/mL
C[C@]1(CO)[C@@H](Cn2cnc3c(=O)[nH]c(N)nc32)C1(F)F	HF	VERO	>100 µM
Cc1cn([C@@H]2OC3COP(=O)(O)OC3[C@H]2O)c(=O)nc1N	KOS	-	>400 µg/mL
CCCCCCCCCCCCCCCCOCCCOP(=O)(O)CO[C@H](CO)Cn1ccc(N)nc1=O	-	MRC-5	0.0001 µM
Cc1cn([C@H]2S[C@@H](CO)C[C@@H]2N=[N+]=[N-])c(=O)[nH]c1=O	-	-	>100 µg/mL
CCCCCc1cn([C@@H]2O[C@H](COP(=O)(O)O)[C@@H](O)[C@H]2O)c(=O)nc1N	F	-	>400 µg/mL
CC(=O)N[C@H]1C[C@@H](n2cnc3c(N)ncnc32)[C@H](O)[C@@H]1O	-	HFF	>100 µg/mL
O=c1ccn([C@@H]2C[C@](O)(CO)CO2)c(=O)[nH]1	-	CCL18	>100 µM
O=C(c1ccc([N+](=O)[O-])cc1)n1c(-c2ccc(Cl)cc2)nc2ccccc21	KOS	-	>100 µg/mL
Cc1ccn2c(C3SCCS3)cnc2c1	VMW 1837 (TK+/TK-)	E6SM	>1000 µM
O=c1ccn(CC=C(CO)CO)c(=O)[nH]1	-	-	>100 µg/mL
CC(=O)OCCOCN1C(N)=CC(N)=NS1(=O)=O	KOS	E6SM	>400 µg/mL
CC(=O)NC1C(O)OC(CO)C(O)C1OC1OC(C(=O)[O-])C(OC2OC(CO)C(O)C(OC3OC(C(=O)[O-])C(O)C(O)C3O)C2NC(C)=O)C(O)C1O.[Na+].[Na+]	F	-	>400 µg/mL
CCCCCCCCCCCCCCCCOP1(=O)CO[C@@H](Cn2ccc(N)nc2=O)CO1	-	MRC-5	3.1 µM
O=C(c1ccccc1Br)n1c(-c2ccc(O)cc2)nc2ccccc21	KOS	-	>100 µg/mL
CCCCCCCCc1cn([C@@H]2O[C@H](COP(=O)(O)O)[C@@H](O)[C@H]2O)c(=O)nc1N	KOS	-	>400 µg/mL
CCCCCCCC/C=C\CCCCCCCCO[C@H]1O[C@H](COP(=O)(O)C(=O)O)[C@@H](O)[C@H](O)[C@H]1O	R39	HFF	36 µM
Nc1nc2c(ncn2COCCO)c(=O)[nH]1	-	VERO	0.8 µg/mL
[N-]=[N+]=N[C@H]1C[C@@H](CO)S[C@@H]1n1ccc(N)nc1=O	-	-	>100 µg/mL
CC1(C)OCC2(CC(CO)OC2=O)O1	-	CCL18	>100 µM
O=C(O)c1ccccc1-c1nc2ccccc2n1C(=O)c1ccc([N+](=O)[O-])cc1	KOS	-	>100 µg/mL
C/C(=C\Cn1ccc(N)nc1=O)CO	-	-	>100 µg/mL
Nc1nc2c(ncn2COCCOC(=O)[C@H](N)C2CCCN2)c(=O)[nH]1	SC16	VERO	1.08 µM
CC1(C)OCC(CO)(CC(O)CO)O1	-	CCL18	>100 µM
C[C@]1(Cn2cnc3c(=O)[nH]c(N)nc32)[C@@H](COCP(=O)(O)O)C1(F)F	HF	VERO	>100 µM
O=c1[nH]c(=O)n(C2C[C@H](CO)[C@@H](CO)C2)cc1I	KOS	E6SM	>100 µg/mL
Cc1cccn2c(C3OCCS3)cnc12	KOS	E6SM	>1000 µM
CC1(C)OCC2(CO[C@H](n3ccc(NC(=O)c4ccccc4)nc3=O)C2)O1	-	CCL18	>100 µM
CNc1ncnc2c1ncn2[C@H]1S[C@H](CO)C[C@@H]1N=[N+]=[N-]	-	-	>100 µg/mL
O=c1c2cccc(Cl)c2[nH]c2cc(O)cc(O)c12	KOS	-	10 µM
Nc1ncnc2c1ncn2/C=C1\[C@H](CO)C1(F)F	-	BSC-1	70 µM
Cc1cn([C@H]2S[C@H](CO)C[C@H]2N=[N+]=[N-])c(=O)[nH]c1=O	-	-	>100 µg/mL
CCCCCCCCCCCCCCCCCCO[C@H]1O[C@H](COP(=O)(O)C(=O)O)[C@@H](O)[C@H](O)[C@H]1O	R39	HFF	20 µM
COc1ccccc1-c1nc2ccccc2n1C(=O)c1ccncc1	KOS	-	>20 µg/mL
CCCCCCCCCCCCCCCCCCCCO[C@@H]1O[C@H](COP(=O)(O)C(=O)O)[C@H](O)[C@H](O)[C@H]1O	R39	HFF	15 µM
O=C(c1ccncc1)n1c(-c2cccc(Cl)c2)nc2ccccc21	KOS	-	>100 µg/mL
Cc1cn([C@@H]2S[C@H](CO)C[C@H]2N=[N+]=[N-])c(=O)[nH]c1=O	-	-	>100 µg/mL
CCCCCCCCCCCCCCO[C@H]1O[C@H](COP(=O)(O)C(=O)O)[C@@H](O)[C@H](O)[C@H]1O	R39	HFF	45 µM